## Primary screen of a compound library

The values are deposited in ChEMBL (CHEMBL3988442, “University of Dundee, Small-Polar-MMV Screening Library” (2021)).

Values are the deposited “Percent Effect”, in %.
The controls that fix the scale are not given in the record; negative values are as filed.
The entries come from a sample that favours strong results.

Mtb glucose medium: 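Growth of Mycobacterium tuberculosis over 3 days (7H9 medium with glucose and tyloxapol); the read-out is not stated. Concentration: 500 µM. Direction is inferred from retests: higher values go with more growth inhibition. Of about 18,000 compounds tested this way, about 1,400 (7.9%) reached 50% or more in at least one test.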
Mtb cholesterol medium: 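Whole-cell growth test on Mycobacterium tuberculosis, read after 4 days in a medium based on cholesterol and the lipid DPPC; the read-out is not stated. Concentration: 500 µM. Direction is inferred from retests: higher values go with more growth inhibition. Size under these conditions: about 18,000 compounds, about 900 of them at 50% or above in at least one test.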

{"compound": "CCN1CCN(C(=O)CSc2ccncc2)C(C)C1=O", "stereo": "centres undefined", "Mtb glucose medium": 16.07}
{"compound": "CSCC(=O)NCc1ccc(CN2CCCC2)cc1", "Mtb glucose medium": 15.35}
{"compound": "O=C(CN1CCCC1=O)NCCc1cscn1", "Mtb glucose medium": 4.127}
{"compound": "COc1ccc(S(=O)(=O)N2CCCCC2)cc1OC", "Mtb glucose medium": 33.39}
{"compound": "CC(Oc1ccc2c(c1)OCO2)C(=O)NC1CC1", "stereo": "centres undefined", "Mtb cholesterol medium": 52.05}
{"compound": "COC(=O)NCCC(=O)N(C)C(C)CC(C)C", "stereo": "centres undefined", "Mtb glucose medium": 44.61}
{"compound": "COc1cccc(NC(=O)CN2CCC(O)CC2)c1", "Mtb glucose medium": 4.331, "Mtb cholesterol medium": 6.765}
{"compound": "Cc1oc(NC(=O)CSc2cnn[nH]2)c(C#N)c1C", "Mtb glucose medium": -14.1}
{"compound": "CCCNC(=O)Nc1ccccn1", "Mtb cholesterol medium": 10.56}
{"compound": "Cc1ccc(NC(=O)C(C)N2CCC(O)CC2)cc1", "stereo": "centres undefined", "Mtb glucose medium": 16.61, "Mtb cholesterol medium": 15.79}
{"compound": "NC[C@@H]1CCO[C@H]1c1ccc(F)cc1", "Mtb glucose medium": 18.15}
{"compound": "CCc1nc(C)c(C(=O)NCC2CCS(=O)(=O)CC2)o1", "Mtb cholesterol medium": 77.43}
{"compound": "Nc1ncccc1C(=O)NCCC1=CCCCC1", "Mtb glucose medium": 72.05, "Mtb cholesterol medium": 62.4}
{"compound": "COc1ccccc1S(=O)(=O)NC1CCN(C)CC1", "Mtb glucose medium": 6.804}
{"compound": "COC(=O)CSc1nc(N)c2ccsc2n1", "Mtb glucose medium": 74.69, "Mtb cholesterol medium": 99.43}
{"compound": "NCCc1nc(-c2ccc(F)cc2)c[nH]1", "Mtb glucose medium": -9.672}
{"compound": "Cc1c(C(=O)NC2=NCCS2)oc2ccccc12", "Mtb glucose medium": 86.52, "Mtb cholesterol medium": 88.43}
{"compound": "Cc1ccc2c(c1)C(N)CO2", "stereo": "centres undefined", "Mtb cholesterol medium": -1.281}
{"compound": "c1csc(C2CNCCO2)c1", "stereo": "centres undefined", "Mtb cholesterol medium": 3.109}
{"compound": "Cc1ccnn1CC(=O)NCCN", "Mtb glucose medium": 0.8587}
{"compound": "CN1CCCC(NC(=O)c2ccc(=O)n(C)c2)C1", "stereo": "centres undefined", "Mtb glucose medium": 4.12}
{"compound": "CN1CCN(C(=O)CC#N)CC1", "Mtb glucose medium": -5.7}
{"compound": "CS(=O)(=O)C1CSCCN1C(=O)c1cccc(Cl)c1", "stereo": "centres undefined", "Mtb glucose medium": -9.263}
{"compound": "COC(=O)n1ncc(C#N)c1N", "Mtb cholesterol medium": 17.57}
{"compound": "Cc1csc(C(=O)N[C@@H](C)C(N)=O)c1I", "Mtb glucose medium": 12.94}
{"compound": "COc1ccc(OCCN2CCC(O)CC2)cc1", "Mtb glucose medium": 4.882}
{"compound": "NCc1cccc(S(=O)(=O)NCc2cccc(F)c2)c1", "Mtb glucose medium": 55.11, "Mtb cholesterol medium": 39.16}
{"compound": "Cc1ccc(NCc2ncc[nH]2)c(F)c1", "Mtb glucose medium": 57.92, "Mtb cholesterol medium": 32.11}
{"compound": "CC(C)(C)NC(=O)c1ccc(CN2CCCC2)cc1", "Mtb glucose medium": 4.095}
{"compound": "NC1CCN(S(=O)(=O)c2ccccc2)CC1", "Mtb glucose medium": -9.81}
{"compound": "CC(NS(=O)(=O)N(C)C1CCCCC1)c1ccccn1", "stereo": "centres undefined", "Mtb glucose medium": 76.59, "Mtb cholesterol medium": 40.36}
{"compound": "Cn1c(=O)oc2ccc(NC(=O)C3COCCN3)cc21", "stereo": "centres undefined", "Mtb glucose medium": -13.36, "Mtb cholesterol medium": -19.9}
{"compound": "CC(C)N1CCN(CCCSc2nnnn2C)CC1", "Mtb glucose medium": -2.191, "Mtb cholesterol medium": -1.123}
{"compound": "CCC(CN)CC(F)F", "stereo": "centres undefined", "Mtb glucose medium": 2.161}
{"compound": "CC(C)(C)OC(=O)N1CCC(n2cc(N)cn2)CC1", "Mtb glucose medium": 56.11, "Mtb cholesterol medium": 67.52}
{"compound": "CCCOc1cccc(C(=O)N(C)CC(N)=O)c1", "Mtb cholesterol medium": 12.17}
{"compound": "CC1CS(=O)(=O)CCN1C(=O)c1cccc2cc[nH]c12", "stereo": "centres undefined", "Mtb glucose medium": 10.61}
{"compound": "CCC(C)(C)NC(=O)Cn1ccc(C(F)(F)F)n1", "Mtb glucose medium": 22.76}
{"compound": "c1cn2c(n1)CN(Cc1nc(C3CC3)no1)CC2", "Mtb glucose medium": 22.12}

For reference, 3 entries once more:

{"compound": "NC1CCN(S(=O)(=O)c2ccccc2)CC1", "Mtb glucose medium": -9.81}
{"compound": "CC(C)(C)NC(=O)c1ccc(CN2CCCC2)cc1", "Mtb glucose medium": 4.095}
{"compound": "CCC(C)(C)NC(=O)Cn1ccc(C(F)(F)F)n1", "Mtb glucose medium": 22.76}